In publication PMC4257840 (Journal of Medicinal Chemistry, 2014):
Marks after values point to notes of the source that are not given here.

System: nonsensitized rats challenged with a natural mixture of HDM allergens

## CC(C)[C@H](NC(=O)[C@H](C)NC(=O)[C@H](Cc1ccccc1)NC(=O)c1ccccc1)C(=O)C(=O)NCC(=O)N1CC[N+](C)(C)CC1.O=C[O-] [Compound 52, 4-(2-{(S)-3-[(S)-2-((S)-2-Benzoylamino-3-phenyl-propionylamino)-propionylamino]-4-methyl-2-oxo-pentanoylamino}-acetyl)-1,1-dimethyl-piperazin-1-ium Formate]
Intratracheal aerosol 6 h prior to challenge, ∼40 μg/kg, drug:target 50:1, mean ± SE, 10 animals
  reduction in innate BAL eosinophil response: 65.6 ± 7.1 ^d %
Single intratracheal dose before HDM allergen challenge, BAL eosinophils
  endurance of action (protection from a single dose): > 6 h
